Data on one substance can be found in patent US11000571B2 (priority 2016, dated 2021).

Experiment [1] concerns intracerebral hemorrhage (“ICH”) mouse model. The experiment can be described thus: Intracerebral hemorrhage (ICH) mouse model, 28-point neurological scale. The class given is in vivo, C57BL/6J mice.
Experiment [2] has as its system MMP-9 (metalloproteinase-9). The experiment can be described thus: Serum MMP-9 stroke biomarker by ELISA after ICH. The class given is in vivo, C57BL/6J mice. To be noted: 32 mg/kg dose; 24 hours post-ICH; relative to saline.

Regarding (Aib)HGGGWGQ(Aib)HGGGWGQ, the 28-point scale score result in experiment [1] (16 mg/kg IP at 1, 4, 24, 48 h after ICH, scored 6, 24, 48, 72 h post-ICH, relative to saline) was “effective at each time point tested”; in experiment [1] (32 mg/kg IP at 1, 4, 24, 48 h after ICH, scored 6, 24, 48 h post-ICH, relative to saline) it was “effective at each time point tested”; in experiment [1] (32 mg/kg IP, 72 hours post-ICH, relative to untreated animals), “did not result in statistically significant difference”. In addition, the “sensory response component of 28-point scale” value is on record as “improved at statistically significant levels” in experiment [1] (16 mg/kg, 6 hrs) and “improved at statistically significant levels” in experiment [1] (low dose (16 mg/kg), 24 hours). Moreover, the “behavioral and neurological deficits following induction of ICH (overall)” value in experiment [1] (overall conclusion, 16 and 32 mg/kg) is “efficacious at diminishing the behavioral and neurological deficits”. Also, the MMP9 serum levels result in experiment [2] is “diminished”.
